Pooled drug test results. Numbers come from NIAID ChemDB, via PubChem.

Common to all: tests in culture; organism: Candida albicans; measure: MIC50

Blank or dashed fields: not listed here. Conditions beyond the fields shown may differ between rows. A number after MIC or MFC names an inhibition level or a share of isolates.

smiles	setting	strain	result
O=c1on(Cc2ccccc2)cc1-c1ccc(Cl)c(Cl)c1	-	ATCC 90028	>32 µg/mL
CN(CCc1ccc(-c2csc(-c3ccc(Cl)cc3)n2)cc1)CC(C)(C)N	-	-	8 µg/mL
OC(Cn1cncn1)(Cn1cncn1)c1ccc(F)cc1F	-	-	0.39 µg/mL
c1csc(C(c2cccc3ccccc23)n2ccnc2)c1	-	23 strains	16 µg/mL
COC(/C=C/c1ccccc1)=C1/C(=O)C=C(C)C1=O	-	Isolate 17	0.3 µg/mL
Cc1ccc(/C=C2/S/C(=N/NC(=O)c3sc(NC(=O)c4ccc(F)cc4)nc3C)N(c3ccccc3)C2=O)cc1	-	MTCC 227	100 µg/mL
CCCCCOc1ccc(-c2ccc(-c3ccc(C(=O)N[C@H]4C[C@@H](O)[C@@H](O)NC(=O)[C@@H]5[C@@H](O)[C@@H](C)CN5C(=O)[C@H]([C@H](C)O)NC(=O)[C@H]([C@H](O)[C@@H](O)c5ccc(O)cc5)NC(=O)[C@@H]5C[C@@H](O)CN5C(=O)[C@H]([C@H](C)O)NC4=O)cc3)cc2)cc1	-	99 isolates	0.02 µg/mL
CN(C)CCCNCc1ccc(-c2csc(-c3ccc(Cl)cc3)n2)cc1	-	-	1 µg/mL
COc1ccc2cc3[n+](cc2c1OC)CCc1cc2c(cc1-3)OCO2	-	-	293 µg/mL
CC[C@@H](c1ccc(Cl)cc1)[C@@H](c1ccc(OC)cc1)n1cnnc1	-	28 strains	256 µg/mL
CC(C)=CCc1c(O)ccc(C(=O)/C=C/c2ccc(O)cc2)c1O	-	-	3 µg/mL
C[C@@H](c1nc(-c2ccc(C#N)cc2)cs1)[C@](O)(Cn1cncn1)c1ccc(F)cc1F	-	-	≤0.006 µg/mL
Nc1[nH]c(=O)ncc1F	-	40 isolates azole-susceptible	0.16 µg/mL
CCCCCOc1ccc(-c2ccc(-c3ccc(C(=O)N[C@H]4C[C@@H](O)[C@@H](O)NC(=O)[C@@H]5[C@@H](O)[C@@H](C)CN5C(=O)[C@H]([C@H](C)O)NC(=O)[C@H]([C@H](O)[C@@H](O)c5ccc(O)cc5)NC(=O)[C@@H]5C[C@@H](O)CN5C(=O)[C@H]([C@H](C)O)NC4=O)cc3)cc2)cc1	-	63 isolates	0.5 µg/mL
CCC(c1ccc(OC)cc1)C(c1ccc(OC)cc1)n1cnnc1	-	28 strains	128 µg/mL
Clc1ccc(Nc2ccnc(Nc3ccc(Cl)cc3)n2)cc1	-	-	0.84 µg/mL
Cc1nc(NC(=O)c2ccc(F)cc2)sc1C(=O)N/N=C1/S/C(=C/c2cccc(O)c2)C(=O)N1c1ccccc1	-	MTCC 227	250 µg/mL
CCC(C)n1ncn(-c2ccc(N3CCN(c4ccc(OC[C@H]5CO[C@](Cn6cncn6)(c6ccc(Cl)cc6Cl)O5)cc4)CC3)cc2)c1=O	-	Fluconazole-susceptible	0.12 µg/mL
Cc1ccc(Nc2ccnc(Nc3ccc(C)cc3)n2)cc1	-	-	0.9 µg/mL
Cc1nc(NC(=O)c2ccc(F)cc2)sc1C(=O)N/N=C1/S/C(=C/c2ccc([N+](=O)[O-])cc2)C(=O)N1c1ccccc1	-	MTCC 227	500 µg/mL
OC(Cn1cncn1)(Cn1cncn1)c1ccc(F)cc1F	48 h	63 isolates	1.6 µg/mL
COc1ccc(C(O)Cc2ccc(Cl)cc2)cc1	-	28 strains	64 µg/mL
Cc1nc(NC(=O)c2ccc(F)cc2)sc1C(=O)N/N=C1/S/C(=C/c2ccc(F)cc2)C(=O)N1c1ccccc1	-	MTCC 227	250 µg/mL
O=c1o[nH]cc1-c1ccc(Cl)c(Cl)c1	-	ATCC 90028	>32 µg/mL
NS(=O)(=O)c1ccc(Nc2ccnc(Nc3ccc(S(N)(=O)=O)cc3)n2)cc1	-	-	1.5 µg/mL
c1csc(C(c2ccc3ccccc3c2)n2ccnc2)c1	-	23 strains	8 µg/mL
CCC(C)n1ncn(-c2ccc(N3CCN(c4ccc(OC[C@H]5CO[C@](Cn6cncn6)(c6ccc(Cl)cc6Cl)O5)cc4)CC3)cc2)c1=O	-	40 isolates azole-susceptible	0.01 µg/mL
CC(C)(N)CNCc1ccc(-c2csc(-c3ccc(Cl)cc3)n2)cc1	-	-	8 µg/mL
C[C@@H](c1ncncc1F)[C@](O)(Cn1cncn1)c1ccc(F)cc1F	-	660 isolates	0.015 µg/mL
COc1ccc(C(=O)C(Cc2ccc(Cl)cc2Cl)c2ccc(Cl)cc2)cc1	-	28 strains	256 µg/mL
Cc1nc(NC(=O)c2ccc(F)cc2)sc1C(=O)N/N=C1/S/C(=C/c2ccccc2[N+](=O)[O-])C(=O)N1c1ccccc1	-	MTCC 227	500 µg/mL
CC[C@@H]([C@H](C)O)n1ncn(-c2ccc(N3CCN(c4ccc(OC[C@@H]5CO[C@@](Cn6cncn6)(c6ccc(F)cc6F)C5)cc4)CC3)cc2)c1=O	-	156 isolates	≤0.004 µg/mL
Fc1ccc(C(c2ccc3ccccc3c2)n2ccnc2)cc1	-	23 strains	8 µg/mL
CC[C@@H]([C@H](C)O)n1ncn(-c2ccc(N3CCN(c4ccc(OC[C@@H]5CO[C@@](Cn6cncn6)(c6ccc(F)cc6F)C5)cc4)CC3)cc2)c1=O	-	23 strains	0.03 µg/mL
COc1ccc(C(c2cccc3ccccc23)n2ccnc2)cc1	-	23 strains	16 µg/mL
Nc1[nH]c(=O)ncc1F	-	19 strains	0.25 µg/mL
COc1ccc(C(c2ccc3ccccc3c2)n2ccnc2)cc1	-	23 strains	16 µg/mL
Clc1cccc(Nc2ccnc(Nc3cccc(Cl)c3)n2)c1	-	-	0.82 µg/mL
CC[C@@H]([C@H](C)O)n1ncn(-c2ccc(N3CCN(c4ccc(OC[C@@H]5CO[C@@](Cn6cncn6)(c6ccc(F)cc6F)C5)cc4)CC3)cc2)c1=O	-	13 strains (fluconazole-resistant)	2 µg/mL
COc1ccc(CC(c2ccc(OC)cc2)n2ccnc2)cc1	-	28 strains	32 µg/mL
c1ccc(C(c2ccc3ccccc3c2)n2ccnc2)cc1	-	23 strains	4 µg/mL
CCn1cc(-c2ccc(Cl)c(Cl)c2)c(=O)o1	-	ATCC 90028	>32 µg/mL
Cc1nc(NC(=O)c2ccc(F)cc2)sc1C(=O)N/N=C1/S/C(=C/c2ccccc2)C(=O)N1c1ccccc1	-	MTCC 227	1000 µg/mL
CCCCCCCCOc1ccc(-c2ccc(C(=O)NC3CC(NCCN)CNC(=O)[C@@H]4[C@@H](O)[C@@H](C)CN4C(=O)[C@@H](CO)NC(=O)[C@H]([C@H](O)Cc4ccccc4)NC(=O)[C@@H]4C[C@@H](O)CN4C(=O)[C@H]([C@@H](C)O)NC3=O)cc2)cc1	-	30 isolates fluconazole-susceptible	0.125 µg/mL
Cc1ccccc1/C=C1/S/C(=N/NC(=O)c2sc(NC(=O)c3ccc(F)cc3)nc2C)N(c2ccccc2)C1=O	-	MTCC 227	100 µg/mL
NC[C@@H]1O[C@H](O[C@H]2[C@@H](O)[C@H](O[C@@H]3[C@@H](O)[C@H](N)C[C@H](N)[C@H]3O[C@H]3O[C@H](CN)[C@@H](O)[C@H](O)[C@H]3N)O[C@@H]2CO)[C@H](N)[C@@H](O)[C@@H]1O	-	-	1.1 µg/mL
Cc1nc(NC(=O)c2ccc(F)cc2)sc1C(=O)N/N=C1/S/C(=C/c2ccccc2Cl)C(=O)N1c1ccccc1	-	MTCC 227	1000 µg/mL
CCC(c1ccc(Cl)cc1)C(c1ccc(OC)cc1)n1ccnc1	-	28 strains	16 µg/mL